In paper PMC12156181, “Antitrypanosomal and Antileishmanial Activities of Tacca leontopetaloides Tubers and Zanthoxylum zanthoxyloides Stem Bark” (Molecules, 2025):
Read-outs that look alike come from different tables or passages of the source.

Tested on: HEK 293 cells
Assay: toxicity assay on HEK 293 cells (Alamar Blue)
Settings: read-out: HEK 293 EC50

In the case of `O=[As]c1ccccc1` (centres unmarked), the EC50 (a = EC50 of control for 1, 3, 4) is reported as 170 nM and the EC50 (b = EC50 of control for 5, 6, 7) is reported as 48 nM.
